Where two headings read alike, the source gives them in different places.

In this data set the test system is human cytomegalovirus (HCMV), strain AD-169. The data set can be described thus: Antiviral test (plaque reduction) versus HCMV, strain AD-169, in MRC-5 cells. The format is cell-based. The arrangement: TI50: unit not given beside the values.
Setting [1] is: Table 9 summary, footnotes: ? = Slight Activity, N.A. = Not Active.

Take `Cc1cc(O)c2c(c1)C(C1c3cc(C)cc(O)c3C(=O)c3c(O)cc(O)cc31)c1cc(O)cc(O)c1C2=O` (centres unmarked) [Emodin Bianthrone (d,1), emodin bianthrone]: the TI is reported as below 1.0 (Example 2, N.A. = Not Active) and below 1.0 under setting [1].

In turn, `O=C1c2ccc(O)cc2C(=O)c2ccc(O)cc21` [Anthraflavic Acid, anthraflavic acid] returned a TI below 1.0.

For the compound `Cc1cc(O)c2c(c1)C(C1c3cc(C)cc(O)c3C(=O)c3c(O)cc(O)cc31)c1cc(O)cc(O)c1C2=O` (centres unmarked) [Emodin Bianthrone (mixed), emodin bianthrone], the TI is reported as 1.8.

Turning to `O=C1c2ccc(O)c(O)c2C(=O)c2c(O)ccc(O)c21` [Quinalizarin, quinalizarin], the TI is 4 and the TI50 was 4.

Compound protohypericin registered a TI of 2.

Regarding `O=C1c2ccccc2C(=O)c2c1ccc(O)c2O` [Alizarin, alizarin], the TI entry is on record as “≈2” and the TI50 result is reported as “˜2”.

Regarding `Cc1cc(O)c2c(c1)C(C1c3cc(C)cc(O)c3C(=O)c3c(O)cc(O)cc31)c1cc(O)cc(O)c1C2=O` (stereo not drawn) [Emodin Bianthrone (meso), emodin bianthrone], the TI is recorded as below 1.0 (Example 2, N.A. = Not Active) and below 1.0 under setting [1].

Values taken from US6686393B1, “Pharmaceutical compositions having antiviral activity against human cytomegalovirus” (Murdock International Corporation, priority 1990, dated 2004).
